Pooled drug test results. Numbers come from NIAID ChemDB, via PubChem.

Shared fields: whole-cell or culture tests; agent: Mycobacterium tuberculosis

ECn: concentration that inhibits the pathogen or its effect by n%.

compound	strain	mutations	cell line	read by	conditions	measure	tested at	result
CCCc1cc(=O)oc2c3c(cc(OC(C)C)c12)O[C@H](C)[C@H](C)[C@@H]3O	H37Ra					MBC		64 µg/mL
Cn1c(=O)nc2n(-c3ccc(F)c(F)c3)c3ccccc3nc-2c1=O	H37Rv			BACTEC		inhibition	12.5 µg/mL	92%
CCCc1cc(=O)oc2c(C(=O)CC)c(OC)cc(O)c12	H37Ra					MIC		>128 µg/mL
Cc1ccc(C2c3c(nc(=S)[nH]c3N)Oc3c2c(C)nn3-c2ccccc2)cc1	H37Rv					inhibition	62.5 µg/mL	26%
O=C(Nc1cccc(F)c1)c1cc(F)ccc1O	CNCTC MY331/88					MIC		31 µM
CC1CC(=O)N2CCCNC2=C1C#N	H37Rv			resazurin		MIC bound		>6.25 µg/mL
NCC[C@H](O)C(=O)N[C@@H]1C[C@H](N)[C@@H](O[C@H]2O[C@H](CN)[C@@H](O)[C@H](O)[C@H]2O)[C@H](O)[C@H]1O[C@H]1O[C@H](CO)[C@@H](O)[C@H](N)[C@H]1O	TN3218 (W3)					MIC		>256 µg/mL
C=CCOc1cc(O)c2c(CCC)cc(=O)oc2c1C(=O)CC	H37Ra					MIC		>128 µg/mL
CN(C)[C@@H]1C(=O)C(C(N)=O)=C(O)[C@@]2(O)C(=O)C3=C(O)c4c(O)cccc4C[C@H]3C[C@@H]12	H37Rv			BACTEC		MIC bound		≤12.8 µg/mL
Cc1ccc(NC(=O)c2cc(-c3ccc(-c4cccs4)s3)nc3ccc(C)cc23)cc1	H37Rv			fluorescence		MIC		>6.25 µg/mL
Cc1nn(-c2ccccc2)c2c1C(c1cccc([N+](=O)[O-])c1)C(C#N)=C(N)O2	H37Rv					inhibition	62.5 µg/mL	41%
CCOC(=O)c1ccc(NP(=O)(Nc2ccc(C(=O)OCC)cc2)c2ccc(N)cc2)cc1	H37Rv			BACTEC		inhibition	6.25 µg/mL	14%
C=C(C)/C=C/[C@]12C[C@H](C)[C@H]3CC[C@](C)(NC=O)[C@@H](CC[C@H]1C)[C@@H]32	H37Rv					inhibition	8 µg/mL	17%
CN[C@@H]1[C@@H](O)[C@@H](O[C@@H]2[C@@H](O)[C@H](O[C@H]3O[C@H](CN)CC[C@H]3N)[C@@H](N)C[C@H]2N)OC[C@]1(C)O	8666/2010					MIC		2.09 µM
O=C1c2ccccc2C(=O)c2c1ccc1c2[nH]c2cc(Cl)c(Cl)cc21				resazurin		inhibition	6.25 µg/mL	-26%
O=C(COc1cnccn1)N/N=C1\SCC(=O)N1c1ccc(Cl)cc1	H37Rv					MIC		105 µg/mL
COC(=O)/C=C(C)/C=C/c1cc(C(C)=O)c(C)o1	H37Rv			BACTEC		MIC bound		>12.5 µg/mL
CCCCn1c(-c2ccc(Cl)cc2)cs/c1=N\NC(=O)COc1cnccn1	H37Rv					MIC		7.6 µg/mL
CCCc1cc(=O)oc2c(C(=O)CC)c(OCC)c3c(c12)OC(C)(C)CC3	H37Ra					MIC		>128 µg/mL
COc1ccc(C(=O)[C@@H]2C[C@H](C#N)[C@@H]3C=Cc4c(ccc5cccnc45)N23)cc1	H37Rv			reporter gene / fluorescence		MIC		>200 µM
Cc1cc(C(N)=S)no1				resazurin		inhibition	6.25 µg/mL	-4%
CCOC(=O)c1cc(C(=O)c2ccc(Cl)cc2)n2c1ccc1c3ncccc3ccc12	H37Rv			reporter gene / fluorescence		MIC		>100 µM
O=C(Nc1ccc(Cl)cc1)c1ccccc1O	CNCTC MY331/88					MIC		31 µM
NC(=O)C1=NNc2ccccc2C(=O)N1c1ccccc1	H37Rv			BACTEC		inhibition	12.5 µg/mL	21%
O=C(O)c1cc(/C=C\c2cccs2)nc2ccccc12	H37Rv			fluorescence		MIC		>6.25 µg/mL
CCOC(=O)c1c(-c2ccccc2)csc1N	H37Rv			BACTEC		inhibition	12.5 µg/mL	47.25%
N#Cc1ccc(N2CC3CCC2CN3Cc2ccc([N+](=O)[O-])o2)cc1	Clinical Isolate 16995	INH RFP resistant		resazurin		MIC90		8.89 µg/mL
Cc1ccc(C2c3c(nc(=O)[nH]c3N)Oc3c2c(C)nn3-c2ccccc2)cc1	H37Rv					inhibition	62.5 µg/mL	45%
COc1nc2ccc(Br)cc2cc1[C@@H](c1ccccc1)[C@@](O)(CCN(C)C)c1cccc2ccccc12	clinical isolate MAL010084			resazurin		MIC90		0.03125 µg/mL
C#CCOc1c2c(c3c(CCC)cc(=O)oc3c1C(=O)CC)OC(C)(C)CC2	H37Ra					MIC		>128 µg/mL
O=C(Nc1ccc(Br)cc1)c1ccccc1O	CNCTC MY331/88					MIC		31 µM
CCN1C(=O)[C@@H]2[C@H](C1=O)[C@@H](C(=O)c1ccc(C)cc1)N1c3ccc4cccnc4c3C=C[C@H]21	H37Rv			reporter gene / fluorescence		EC90		>100 µM
O=C(CCC(=O)c1ccc2ccccc2c1)NC[C@H]1CN(c2ccc(N3CCCC3)c(F)c2)C(=O)O1	10 clinical isolates resistant					MIC		>16 µg/mL
NC(=O)c1cnccn1	Isolate 97-69					MIC		900 µg/mL
CS(=O)(=O)Nc1cc(C(O)C2CCCCN2)ccc1O	H37Rv			resazurin		MIC bound		>6.25 µg/mL
Cc1c(C(F)(F)F)cc2ncsc2c1[N+](=O)[O-]	H37Rv			resazurin / absorbance		MIC80		>16 µg/mL
Cn1c(C(C)(C)O)cnc1[N+](=O)[O-]	H37Rv			resazurin		inhibition	6.25 µg/mL	-1%
CC(C)CCOc1ccc(NC(=S)Nc2ccc(OCCC(C)C)cc2)cc1	H37Rv			resazurin		MIC		2.5–5 µg/mL
O=[N+]([O-])c1cc(C(F)(F)F)cc2nc(C3=NCCO3)sc12	H37Rv			resazurin / absorbance		MIC80		1 µg/mL
COc1cc2c(c3oc(=O)ccc13)C=CC(C)(C)O2	H37Rv			broth dilution / resazurin		MIC		1940 µM
CC(=O)N[C@@H]1[C@@H](OC(C)=O)[C@H](OC(C)=O)[C@@H](COC(C)=O)O[C@H]1NC(=S)NCC(=O)c1ccc(C)cc1	H37Rv			resazurin		inhibition	6.25 µg/mL	7%
COCCN1CCN(C(=O)c2nc3cc(C(F)(F)F)cc([N+](=O)[O-])c3s2)CC1	H37Rv			resazurin / absorbance		MIC80		0.5 µg/mL
CC(=O)c1oc(C)nc1C	H37Rv			BACTEC		inhibition	12.5 µg/mL	-12%
O=C(Nc1nc(-c2cccs2)cs1)c1cc(-c2ccc([N+](=O)[O-])s2)nc2ccccc12	H37Rv			fluorescence		MIC		6.25 µg/mL
COC(=O)c1c(C(=O)OC)c2ccc3c4ncccc4ccc3n2c1C(=O)c1ccc(C)cc1	H37Rv			reporter gene / fluorescence		EC90		>200 µM
COc1cc2c(c(OC)c1CCC(=O)O)C=CC(C)(C)O2	H37Rv			broth dilution / resazurin		MIC		210 µM
CC(C)(C)c1cccc(N2CC3CN(Cc4ccc([N+](=O)[O-])o4)CC3C2)c1	Clinical Isolate 16833	INH RFP resistant		resazurin		MIC90		2.22 µg/mL
OC(c1cc(-c2ccccc2)nc2ccc(Cl)cc12)C1CCCCN1	H37Rv		VERO			MIC		3.13 µg/mL
Cc1nn(-c2ccccc2)c2c1C(c1ccccc1)c1c(nc(=S)[nH]c1N)O2	H37Rv					inhibition	62.5 µg/mL	31%
CN[C@@H]1[C@H](O[C@H]2[C@H](O[C@H]3[C@H](O)[C@@H](O)[C@H](N=C(N)N)[C@@H](O)[C@@H]3N=C(N)N)O[C@@H](C)[C@]2(O)C=O)O[C@@H](CO)[C@H](O)[C@H]1O	H37Rv Beijing			broth dilution		MIC		0.125–0.25 µg/mL
Cc1nn(-c2ccccc2)c2c1C(c1ccc(F)cc1)c1c(nc(=S)[nH]c1N)O2	H37Rv					inhibition	62.5 µg/mL	61%
O=C(CCC(=O)c1ccc(Cl)cc1)NC[C@H]1CN(c2ccc(N3CCCCC3)c(F)c2)C(=O)O1	10 clinical isolates resistant					MIC		4–8 µg/mL
CO[C@H]1/C=C/O[C@@]2(C)Oc3c(C)c(O)c4c(O)c(c(/C=N/N5CCN(C)CC5)c(O)c4c3C2=O)NC(=O)/C(C)=C\C=C\[C@H](C)[C@H](O)[C@@H](C)[C@@H](O)[C@@H](C)[C@H](OC(C)=O)[C@@H]1C	Clinical Isolate 16833	INH RFP resistant		resazurin		MIC90		>40 µg/mL
O=c1c2nc3ccccc3c(=O)n2ncn1-c1ccccc1Cl	H37Rv			resazurin		MIC bound		>6.25 µg/mL
Cc1ccc(Cn2nnc(-c3cc([N+](=O)[O-])cc([N+](=O)[O-])c3)n2)cc1	7357/1998				14 d	MIC		0.125 µM
O=C(N=Nc1c(O)[nH]c2ccc(Br)cc12)c1ccncc1	H37Rv			resazurin		inhibition	6.25 µg/mL	-5%
COc1ccc(-c2cs/c(=N\NC(=O)COc3cnccn3)n2C(C)C)cc1	H37Rv					MIC		22 µg/mL
Cc1noc(NS(=O)(=O)c2ccc(NC(=O)NCCCl)cc2)c1C	H37Rv			BACTEC		inhibition	12.5 µg/mL	8%
CC1COc2c(N3CCN(C)CC3)c(F)cc3c(=O)c(C(=O)O)cn1c23	21 strains					MIC50		1 µg/mL
CC(C)CCOc1ccc(NC(=S)NC2OC(CO)[C@@H](O)[C@H]2O)cc1	H37Rv			resazurin		MIC		3.125–6.25 µg/mL
CCOC(=O)c1cc(C(=O)c2ccccc2)n2c1ccc1c3ncccc3ccc12	H37Rv			reporter gene / fluorescence		EC50		>200 µM
CN(C)c1ccc(NC(=O)c2cc(F)ccc2O)cc1	CNCTC MY331/88					MIC		31 µM
CC(C)n1c(-c2ccc(Cl)cc2Cl)cs/c1=N\NC(=O)COc1cnccn1	H37Rv					MIC		14 µg/mL
COc1ccc(C2C(C#N)=C(N)Oc3c2c(C)nn3-c2ccccc2)cc1	H37Rv					inhibition	62.5 µg/mL	5%
O=[N+]([O-])c1ccc(CN2CCC3(CC2)CCN(c2ccc(OC(F)(F)F)cc2)CC3)o1	Clinical Isolate 16995	INH RFP resistant		resazurin		MIC90		4.29 µg/mL
CC(C)Cc1ccc(C(=O)CCC(=O)NC[C@H]2CN(c3ccc(N4CCCC4)c(F)c3)C(=O)O2)cc1	ATCC 27294					MIC		8 µg/mL
COCCN1CCN(C(=O)c2nc3cc(C(F)(F)F)c(C)c([N+](=O)[O-])c3s2)CC1	H37Rv			resazurin / absorbance		MIC80		0.5 µg/mL
CC(C)n1c(-c2ccc(O)cc2)cs/c1=N\NC(=O)COc1cnccn1	H37Rv					MIC		11 µg/mL
CC(=O)Nc1ccc(C(=O)CCC(=O)NC[C@H]2CN(c3ccc(N4CCCCC4)c(F)c3)C(=O)O2)cc1	10 clinical isolates resistant					MIC		>16 µg/mL
O=C([C@@H](O)CO)N1CC=C(c2c(F)cc(N3C[C@H](COc4ccon4)OC3=O)cc2F)CC1	H37Rv Harlingen			broth dilution		MIC		0.25 µg/mL
O=C(Nc1nc(-c2cccs2)cs1)c1cc(-c2ccccc2)nc2ccccc12	H37Rv			fluorescence		MIC		>6.25 µg/mL
O=[N+]([O-])c1ccc(CN2CC3CN(c4ccc(OC(F)(F)F)cc4)CC3C2)o1	Clinical Isolate 16995	INH RFP resistant		resazurin		MIC90		3.24 µg/mL
O=C(O)c1cc(-c2ccccc2)nc2ccccc12	H37Rv			fluorescence		MIC		>6.25 µg/mL
O=C(CN1CC1)Nc1ccc(NC(=O)CN2CC2)cc1	H37Rv			BACTEC		MIC bound		>12.5 µg/mL
O=c1c2ccccc2nc2n1CCc1c-2[nH]c2ccccc12	H37Rv			broth dilution / resazurin		MIC		54 µM
CC1COc2c(N3CCN(C)CC3)c(F)cc3c(=O)c(C(=O)O)cn1c23	DP299S			broth dilution		MIC		0.5 µg/mL
O=c1[nH]c(Nc2nc3ccccc3[nH]2)nc(O)c1-c1ccccc1	H37Rv			BACTEC		inhibition	12.5 µg/mL	18%
COC(=O)c1c(C(=O)OC)c2ccc3c4ncccc4ccc3n2c1C(=O)c1ccc(Cl)cc1	H37Rv			reporter gene / fluorescence		EC90		>50 µM
COc1cccc2c1C(=O)c1c(O)c3c(c(O)c1C2=O)C[C@@](O)(/C(CO)=N/NC(=O)c1ccc(Cl)c(Cl)c1)C[C@@H]3O[C@@H]1C[C@@H](N)[C@@H](O)[C@@H](C)O1	H37Rv			BACTEC		inhibition	12.5 µg/mL	-8%
Cc1c(C(F)(F)F)cc2nc(C3=N[C@H](C(=O)N4CCCC4)CO3)sc2c1[N+](=O)[O-]	H37Rv	BTZ-resistant (C387G)		resazurin / absorbance		MIC80		>64 µg/mL

Conditions beyond the fields shown may differ between rows. Two numbers with a dash give a range or band. MIC bound: limit read from a one-dose screen. Blank or dashed fields: not listed here. Percent inhibition refers to the dose given; in toxicity tests it is the harm to the cells. MIC50, MIC90 and the like: level of inhibition, or share of isolates inhibited.